Test [1] has as its target full-length S from SARS CoV-2 (WA-1) (SARS-CoV-2) (UniProt P0DTC2).
Test [2] concerns the target full-length S B.1.258.24 (N439K/D614G) (SARS-CoV-2) (UniProt P0DTC2).

The values that follow come from paper PMC9269068, “Ultrapotent antibodies against diverse and highly transmissible SARS-CoV-2 variants” (2021).

Consider A19-61.1, for which the pseudovirus (lentivirus) neutralisation IC50, 293T-ACE2 cells; […] in test [1] was determined as 0.0709 mg/L.
The substance CB6 yielded a fold reduction in binding (MFI) against D614G in test [2] of under 2 fold.
